# Fitness of HIV-1 LAI Vif variants in SupT1-APOBEC3G cells

Values reported by Langley et al. 2025, preprint (doi:10.1101/2025.10.20.683452).

Protein: Vif of HIV-1 LAI (a laboratory-adapted subtype B strain). Residues 12-115 were scanned and are shown below; the first letter is residue 12.
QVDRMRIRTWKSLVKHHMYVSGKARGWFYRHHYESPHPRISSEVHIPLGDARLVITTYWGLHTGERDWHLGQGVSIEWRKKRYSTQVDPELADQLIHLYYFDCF

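Pooled viruses with one designed change each in Vif went through two 72 h rounds in SupT1 cells expressing APOBEC3G. Each of three replicates was sequenced after round two and set against the merged round-one pool.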

The score is log2 enrichment against the wild-type codon: higher is better tolerated, lower is depleted.
Each entry names the wild-type residue, its position and the residue put in its place.
The median of three replicates is given, with the replicates in brackets.
Input reads are the counts in the merged round-one pool, before selection.
Replicates agree only moderately (rank correlation about 0.4-0.65); scores from under about 50 input reads tend to be too high.

change | input reads | median log2 enrichment
Q105F | 50 | -1.87 (-0.70 -3.44 -1.87)
Q105G | 219 | -2.11 (-1.68 -3.05 -2.11)
Q105H | 476 | -1.73 (-1.73 0.90 -2.30)
Q105I | 309 | -0.98 (-1.24 -0.98 -0.64)
Q105K | 219 | -3.55 (-3.55 -4.82 -3.25)
Q105N | 1030 | -1.70 (-1.70 -3.59 3.04)
Q105T | 264 | -3.71 (-1.01 -3.71 -4.26)
Q105Y | 413 | -1.06 (-2.59 2.51 -1.06)
L106A | 1353 | 1.37 (2.15 -0.77 1.37)
L106F | 269 | -0.12 (-0.12 -3.98 1.97)
L106H | 20 | -2.14 (-1.69 -2.14 -2.17)
L106K | 69 | -3.45 (-3.45 -2.32 -3.93)
L106N | 100 | -1.65 (-0.81 -2.85 -1.65)
L106P | 261 | -1.93 (-2.19 -1.67 -1.93)
L106R | 304 | -1.54 (-1.34 -4.45 -1.54)
L106S | 192 | -1.75 (-1.75 -1.28 -2.59)
L106T | 385 | -2.31 (1.93 -3.20 -2.31)
L106V | 106 | -4.07 (-4.07 -1.06 -4.54)
I107A | 20 | 0.99 (7.46 -0.24 0.99)
I107E | 132 | -0.92 (-0.92 0.59 -1.70)
I107F | 119 | -1.91 (-1.91 -6.25 0.03)
I107G | 129 | -4.84 (0.69 -6.36 -4.84)
I107H | 550 | -1.91 (-1.91 -3.70 -1.50)
I107K | 183 | -2.53 (-2.05 -3.41 -2.53)
I107L | 21 | 1.05 (1.05 6.79 0.92)
I107N | 313 | -2.21 (-1.93 -3.12 -2.21)
I107P | 783 | -0.11 (-1.11 -0.11 0.23)
I107Q | 37 | 3.37 (3.37 3.49 -0.24)
I107S | 298 | -2.75 (-2.75 -3.66 -0.68)
I107T | 313 | 3.33 (3.33 3.35 1.90)
I107W | 596 | -1.06 (-1.06 0.96 -2.40)
H108A | 57 | -2.88 (-0.89 -2.88 -3.65)
H108D | 603 | -1.07 (-0.99 -2.12 -1.07)
H108F | 353 | 0.40 (0.40 1.46 -3.47)
H108I | 394 | 1.73 (-2.29 1.91 1.73)
H108K | 856 | -1.17 (-1.75 0.43 -1.17)
H108L | 189 | -3.35 (-3.35 -3.47 -1.91)
H108N | 880 | -2.83 (-3.69 1.57 -2.83)
H108P | 151 | -3.80 (-3.02 -3.80 -5.05)
H108Q | 297 | -2.56 (-1.68 -4.41 -2.56)
H108R | 1013 | -1.80 (-1.80 -0.09 -3.70)
H108S | 73 | -1.98 (-1.98 -3.24 -1.68)
H108T | 31 | -2.34 (-2.34 -4.34 -1.20)
H108V | 161 | -1.00 (-1.00 2.24 -2.82)
H108Y | 466 | -1.28 (-1.28 -3.37 3.36)
L109V | 143 | -0.35 (-1.72 -0.35 0.22)
Y110C | 127 | -2.02 (-2.02 -2.45 -1.64)
Y110E | 340 | -2.59 (-2.59 -4.08 -0.07)
Y110F | 91 | 1.69 (-1.06 2.25 1.69)
Y110H | 145 | -0.84 (-0.84 -4.23 0.98)
Y110N | 550 | -0.26 (-0.43 -0.26 1.28)
Y110Q | 237 | -2.53 (-2.07 -2.61 -2.53)
Y110R | 371 | -1.25 (-1.25 1.32 -1.96)
Y110S | 53 | -3.09 (-3.09 0.45 -3.55)
Y111A | 168 | -2.40 (-2.42 2.03 -2.40)
Y111C | 335 | -1.34 (-1.34 -0.84 -2.29)
Y111D | 24 | -0.37 (-0.37 -2.40 4.84)
Y111E | 141 | -1.78 (3.91 -2.81 -1.78)
Y111F | 1629 | -2.73 (-2.73 0.03 -3.27)
Y111H | 63 | 0.45 (0.76 0.13 0.45)
Y111I | 357 | -3.12 (-2.37 -3.46 -3.12)
Y111K | 59 | -0.43 (-0.43 -2.46 4.52)
Y111L | 74 | -1.24 (-1.24 2.43 -2.44)
Y111M | 172 | -0.69 (-0.69 -3.10 0.32)
Y111N | 100 | -0.21 (-0.82 0.00 -0.21)
Y111Q | 349 | -2.99 (-2.99 -3.73 -2.35)
Y111R | 175 | 3.77 (4.11 -0.67 3.77)
Y111W | 23 | -0.04 (0.42 -3.92 -0.04)
F112A | 39 | 1.52 (5.71 -1.51 1.52)
F112D | 430 | -1.75 (-2.18 -1.75 0.09)
F112E | 19 | 0.21 (3.42 -3.66 0.21)
F112G | 34 | 0.72 (0.72 -4.48 2.56)
F112H | 526 | -2.48 (-1.63 -2.48 -3.40)
F112L | 19 | -0.52 (1.54 -0.85 -0.52)
F112M | 219 | -2.43 (3.32 -3.98 -2.43)
F112N | 257 | -2.18 (-2.18 -4.21 -2.13)
F112P | 308 | -2.92 (-1.52 -4.84 -2.92)
F112Q | 17 | -1.95 (-1.47 -3.50 -1.95)
F112S | 98 | -1.04 (-1.15 -1.04 -0.74)
F112V | 128 | -2.51 (-2.02 -4.06 -2.51)
F112Y | 148 | -3.78 (-2.97 -3.78 -5.04)
D113A | 887 | -0.85 (2.11 -0.85 -1.80)
D113C | 1176 | -2.83 (-2.80 -2.89 -2.83)
D113E | 971 | -1.32 (-2.15 0.07 -1.32)
D113G | 278 | -2.21 (3.58 -2.21 -3.15)
D113H | 406 | 1.18 (1.18 -1.33 1.20)
D113I | 18 | 1.25 (1.25 5.64 0.76)
D113K | 487 | -3.07 (-2.37 -5.13 -3.07)
D113L | 322 | -2.27 (-1.99 -6.12 -2.27)
D113M | 268 | -1.03 (-1.03 -0.84 -3.59)
D113N | 1896 | -0.82 (-0.82 -0.52 -3.17)
D113Q | 369 | -2.42 (-2.42 2.25 -2.67)
D113R | 365 | -2.27 (-4.28 -1.20 -2.27)
D113V | 153 | 0.83 (0.24 2.38 0.83)
D113W | 1143 | -3.81 (-3.81 -3.19 -5.68)
D113Y | 1818 | -2.35 (-2.35 -2.87 -0.77)
C114E | 56 | 0.27 (0.91 -1.49 0.27)
C114V | 47 | -3.39 (-0.12 -4.94 -3.39)
C114W | 75 | -0.13 (-0.13 -0.18 0.03)
F115A | 1073 | -0.62 (-2.67 -0.62 -0.06)
F115C | 348 | -2.34 (-2.34 -3.29 -2.18)
F115D | 298 | -3.24 (-1.67 -3.35 -3.24)
F115G | 116 | -4.65 (-4.22 -4.65 -4.69)
F115H | 265 | -1.16 (-1.16 2.04 -2.71)
F115I | 428 | -1.85 (-1.85 -0.30 -3.40)
F115K | 127 | -2.03 (-2.03 -4.78 -1.65)
F115L | 246 | -5.30 (-5.30 -5.00 -5.77)
F115M | 128 | -0.74 (1.71 -1.52 -0.74)
F115N | 328 | -4.13 (-4.13 -5.41 -1.43)
F115P | 409 | -1.94 (-4.45 -1.94 -1.37)
F115Q | 217 | -1.03 (-1.03 -3.23 -0.23)
F115T | 16 | -1.83 (-1.40 -1.83 -1.87)
F115W | 26 | 2.40 (5.55 -1.29 2.40)

Excerpt, the final 6 entries:

* F115M (input reads 128) -> -0.74 (1.71 -1.52 -0.74)
* F115N (input reads 328) -> -4.13 (-4.13 -5.41 -1.43)
* F115P (input reads 409) -> -1.94 (-4.45 -1.94 -1.37)
* F115Q (input reads 217) -> -1.03 (-1.03 -3.23 -0.23)
* F115T (input reads 16) -> -1.83 (-1.40 -1.83 -1.87)
* F115W (input reads 26) -> 2.40 (5.55 -1.29 2.40)

Positive scores are uncertain; some enriched variants did not exclude APOBEC3G in a separate test.
Some changes are missing from the data or left out.